# Single amino acid changes in Zika NS2B-NS3 and viral growth

Values reported by Ni et al. 2025 (doi:10.1038/s41467-025-63602-z).

Protein: NS2B and the protease part of NS3 of Zika virus strain MR766. Positions count along the chain below; NS2B spans 2-131 and NS3 starts at 132.
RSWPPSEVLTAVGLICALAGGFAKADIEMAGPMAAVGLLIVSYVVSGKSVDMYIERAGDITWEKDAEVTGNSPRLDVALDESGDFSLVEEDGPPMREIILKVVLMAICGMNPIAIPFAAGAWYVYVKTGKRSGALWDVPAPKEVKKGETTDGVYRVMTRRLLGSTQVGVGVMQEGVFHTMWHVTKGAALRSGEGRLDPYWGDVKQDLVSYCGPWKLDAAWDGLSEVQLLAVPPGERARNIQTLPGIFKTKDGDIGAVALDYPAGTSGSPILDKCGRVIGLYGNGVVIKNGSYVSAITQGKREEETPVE

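Libraries of single mutants were passaged as virus pools on Huh-7.5 cells. Sequencing of three replicate libraries (two for positions 207-308) was averaged into one effect per change. The study looked for pockets that tolerate few changes, as a guide for inhibitor design.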

The number is log2 of the effect relative to wild type; negative values mean reduced growth, higher values better tolerance. A change reads original residue, position, new residue. All changes here are to lysine. Positions 1-103, 104-206 and 207-308 were made and measured as separate libraries. Values above 0 are not proof of better growth: six high scorers were tested one by one, five grew less well than wild type and one about as well. Position 1 still belongs to NS2A. In the paper, -1 or higher counts as tolerated.

For R1K the result was -4.09. S2K read -7.01. W3K gave -6.53. P4K read -6.28. With P5K the assay gave -6.53. S6K gave -4.82. For E7K the result was -6.27. V8K read -4.99. With L9K the assay gave -5.30.

T10K gave -5.99. A11K gave -5.56. V12K read -5.85. With G13K the assay gave -5.98. L14K read -5.81. I15K read -7.31. C16K read -6.28. For A17K the result was -5.70. For L18K the result was -6.77.

A19K gave -6.75. For G20K the result was -5.42. For G21K the result was -6.62. F22K gave -6.14. For A23K the result was -5.03. For A25K the result was -5.14. For D26K the result was -3.09. I27K gave -3.90. With E28K the assay gave -1.73.

With M29K the assay gave -3.89. A30K read 0.43. For G31K the result was -4.99. With P32K the assay gave -5.36. M33K gave -5.62. A34K gave -4.91. A35K gave -5.93. V36K gave -5.92. G37K read -6.05.

For L38K the result was -6.36. L39K gave -4.66. With I40K the assay gave -5.21. For V41K the result was -5.16. For S42K the result was -6.19. Y43K gave -5.98. V44K gave -6.04. For V45K the result was -5.55. S46K read -5.60.

G47K read -6.21. For S49K the result was -5.85. For V50K the result was -6.35. For D51K the result was -5.99. M52K read -6.41. With Y53K the assay gave -5.92. With I54K the assay gave -6.40. For E55K the result was -5.64. With R56K the assay gave -2.24.

A57K read -5.32. G58K read -5.72. D59K gave -5.69. I60K read -6.63. For T61K the result was -1.86. W62K gave -6.76. E63K gave -4.14. D65K read -5.96. A66K gave -6.02.

With E67K the assay gave -4.56. V68K read -6.11. For T69K the result was -5.98. For G70K the result was -5.63. N71K read -6.77. For S72K the result was -5.51.